The values below come from patent publication US20100234454A1 (priority 2006, published 2010).

The subject of this assay is rats. The assay can be described thus: Flinches in rats after intraplantar injection of crude Cyanea capillata venom. The format is in vivo, rat. Particulars: 40 mg/kg BCTC s.c. one hour before venom, 4 minutes, p<0.05, n=6.

For the compound `CC(C)(C)c1ccc(NC(=O)N2CCN(c3ncccc3Cl)CC2)cc1` [BCTC, N-(4-Tertiarybutylphenyl)-4-(3-cholorphyridin-2-yl)tetrahydropyrazine-1(2H)-carbox-amide], the “number of flinches (mean) after intraplantar crude venom following BCTC” value was determined as 14.0.
